Data as given in PubChem BioAssay AID624099 (ICCB-Longwood, 2012).

Test: 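Knock-downs relieving repression by E2 of an HPV18 LCR luciferase reporter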 (primary screen)
System: human C33A cervical carcinoma cells (HPV-negative) stably expressing BPV1 E2 and an HPV18 LCR luciferase reporter
Reagent: siRNA pool against human genes, 40 nM
Duration: 72 h
Detection: 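Per-well luciferase luminescence, z-scored on each plate against the plate mean and SD with control wells left out, then averaged across three replicate plates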
Scale: mean z-score and z-score: higher = stronger reporter signal, weaker E2 silencing
Rule for the call: 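Mean z ≥ 2 together with z ≥ 2 in two or more of the three replicates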
In all, the deposit lists about 21,000 reagents; this is a random part of them. Over the whole deposit, 497 (2.4%) are marked active. 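Higher z means weaker E2 silencing; only reporter increases were scored, and knock-downs that hurt cell survival may mask genuine repressor factors.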 Reagent sequences are not shown.

LOC389077 (retired record) | mean z-score: -0.55; z-score, replicate A: 0.02; z-score, replicate B: -1.32; z-score, replicate C: -0.36; Outcome: inactive
NDUFA6 | mean z-score: -0.48; z-score, replicate A: -0.34; z-score, replicate B: -0.34; z-score, replicate C: -0.75; Outcome: inactive
CMTM8 | mean z-score: 0.24; z-score, replicate A: 0.22; z-score, replicate B: 0.26; z-score, replicate C: 0.26; Outcome: inactive
PRL | mean z-score: -0.54; z-score, replicate A: -0.57; z-score, replicate B: -0.56; z-score, replicate C: -0.48; Outcome: inactive
JDP2 | mean z-score: 0.13; z-score, replicate A: 0.3; z-score, replicate B: -0.21; z-score, replicate C: 0.3; Outcome: inactive
KISS1R | mean z-score: -0.65; z-score, replicate A: -0.7; z-score, replicate B: -0.77; z-score, replicate C: -0.48; Outcome: inactive
SNHG12 | mean z-score: 0.15; z-score, replicate A: 0.04; z-score, replicate B: -0.2; z-score, replicate C: 0.6; Outcome: inactive
ZNF181 | mean z-score: -0.42; z-score, replicate A: -0.37; z-score, replicate B: -0.24; z-score, replicate C: -0.65; Outcome: inactive
CIAO3 | mean z-score: -0.7; z-score, replicate A: -1.24; z-score, replicate B: -0.71; z-score, replicate C: -0.15; Outcome: inactive
CSRP1 | mean z-score: -1.17; z-score, replicate A: -1.22; z-score, replicate B: -1.17; z-score, replicate C: -1.12; Outcome: inactive
SLC5A9 | mean z-score: -0.75; z-score, replicate A: -0.65; z-score, replicate B: -0.81; z-score, replicate C: -0.8; Outcome: inactive
GPR4 | mean z-score: 0.74; z-score, replicate A: 0.79; z-score, replicate B: 0.92; z-score, replicate C: 0.5; Outcome: inactive
CDC42EP3 | mean z-score: 1.14; z-score, replicate A: 1.01; z-score, replicate B: 1.14; z-score, replicate C: 1.26; Outcome: inactive
TMEM114 | mean z-score: -0.14; z-score, replicate A: 0.2; z-score, replicate B: -0.05; z-score, replicate C: -0.58; Outcome: inactive

2 successive records already listed:
ZNF181 | mean z-score: -0.42; z-score, replicate A: -0.37; z-score, replicate B: -0.24; z-score, replicate C: -0.65; Outcome: inactive
CIAO3 | mean z-score: -0.7; z-score, replicate A: -1.24; z-score, replicate B: -0.71; z-score, replicate C: -0.15; Outcome: inactive

More records follow:
ISM1 | mean z-score: -0.27; z-score, replicate A: -0.22; z-score, replicate B: -0.66; z-score, replicate C: 0.08; Outcome: inactive
CEP15 | mean z-score: 1.19; z-score, replicate A: 0.93; z-score, replicate B: 1.14; z-score, replicate C: 1.49; Outcome: inactive
B3GAT1 | mean z-score: -1.16; z-score, replicate A: -1.14; z-score, replicate B: -1.02; z-score, replicate C: -1.32; Outcome: inactive
GUF1 | mean z-score: 0.73; z-score, replicate A: 0.59; z-score, replicate B: 1.04; z-score, replicate C: 0.56; Outcome: inactive
CCHCR1 | mean z-score: 0.93; z-score, replicate A: 1.26; z-score, replicate B: 0.69; z-score, replicate C: 0.83; Outcome: inactive
LOC388002 (retired record) | mean z-score: -0.26; z-score, replicate A: 0; z-score, replicate B: -0.41; z-score, replicate C: -0.38; Outcome: inactive
LY6G6D | mean z-score: -0.93; z-score, replicate A: -1.06; z-score, replicate B: -1.29; z-score, replicate C: -0.43; Outcome: inactive
